Compound potency records, mixed from different reports. Data source: NIAID ChemDB in PubChem.

Common to all: growth or infection tests; species: Mycobacterium tuberculosis

ECn is the concentration giving n% inhibition of infection, replication or growth.

compound,read-out,strain or isolate,changes,read by,tested at,cells,result
CC(C(=O)NN)c1nc2ncccc2[nH]1,MIC,H37Rv,,,,,500 µg/mL
CCCCCCCCCCCCN1CN(CCC(=O)O)CSC1=S,MIC,H37Rv,,,,,12.5 µg/mL
CCCCN1C(=O)C(C)S/C1=N/N=C1\C(=O)Nc2ccc(Br)cc21,MIC,H37Rv,,,,,>12.5 µg/mL
NNC(=O)c1ccncc1,MIC,HUG.MI.1020,katG mutant isoniazid resistant,resazurin / absorbance,,,1.3 µg/mL
COc1cccc(/C=N/NC(=O)Cc2csc3nc(-c4ccccc4)cn23)c1,MIC,H37Rv,,,,,>12.5 µg/mL
O=C(CSc1nc2ccc(Cl)cc2c(=O)n1-c1ccccc1)N=Nc1c(O)[nH]c2ccccc12,EC50,H37Rv,,,,,<12 µg/mL
O=C(O)c1cnc(C2CCCC2)[nH]1,inhibition,H37Rv,,,6.25 µg/mL,,0%
O=C(O)c1cn(-c2ccc(F)cc2F)c2cc(N3CCC(N4CCCCC4)CC3)c(F)cc2c1=O,MIC,ATCC35801,,,,,6.45 µM
O=C(O)CCCN1CSC(=S)N(c2ccco2)C1,MIC,H37Rv,,,,,50 µg/mL
Brc1ccc(-n2cc(CSC3c4ccccc4-c4ccccc43)nn2)cc1,MIC99,H37Rv,,broth dilution,,,57.55 µM
CN1CCN(CCCN2c3ccccc3Sc3ccc(C(F)(F)F)cc32)CC1,MIC,H37Rv,,,,,5 µg/mL
O=C(Cc1csc2nc(-c3ccccc3)cn12)N/N=C/C=C/c1ccc([N+](=O)[O-])o1,EC50,H37Rv,,,,,<12.5 µg/mL
O=C(O)c1cnccn1,MIC,W478,,,,,240 µg/mL
Clc1ccc2c(c1)Nc1ccccc1S2,MIC,H37Rv,,,,VERO,12.5 µg/mL
NNC(=O)c1ccncc1,MIC,H37Rv,,,,,0.125 µg/mL
COc1ccc([C@@H]2CC3(C[C@H](c4ccc(OC)cc4)N2)N=c2c(c4c5c6c(C)c(O)c4c(O)c2=NC(=O)/C(C)=C\C=C\[C@H](C)[C@H](O)[C@@H](C)[C@H](O)[C@H](C)[C@H](OC(C)=O)[C@H](C)[C@@H](OC)/C=C/O[C@@](C)(O6)C5=O)N3)cc1,MIC,ATCC 35838 (rifampicin- rifabutin-resistant),,,,,1 µg/mL
O=c1cc(-c2ccccc2-c2cccc3c(=O)cc(-c4ccccc4)oc23)oc2ccccc12,EC50,,,,,,>12.5 µg/mL
COc1ccc(CC2C3=C(CCCC3)CCN2c2cc3c(cc2[N+](=O)[O-])c(=O)c(C(=O)O)cn3-c2ccc(F)cc2F)cc1,MIC,ATCC35801,,,,,5.45 µM
CCC(=O)c1ccc(NC(=S)NC)cc1,MIC,H37Rv,,,,,10 µg/mL
CCc1ccc(-n2cc(CSC3c4ccccc4-c4ccccc43)nn2)cc1,MIC99,Specimen 192,,broth dilution,,,261 µM
O=C(O)CCc1cnc(C2CCCC2)[nH]1,MIC,H37Rv,,,,,>6.25 µg/mL
O=c1oc2ccccc2c(O)c1C(c1ccc(Cl)cc1)c1c(O)c2ccccc2oc1=O,MIC bound,H37Rv,,BACTEC,,,>12.5 µg/mL
CC(C)(C)n1cc(C(=O)O)c(=O)c2cc(F)c(N3CCN(C(c4ccccc4)c4ccc(Cl)cc4)CC3)cc21,MIC,ATCC35801,,,,,1.42 µM
N#CCCN(CCC#N)c1ccc(/C=C(/NC(=O)c2cc([N+](=O)[O-])ccc2Cl)C(=O)N=[N+]=[N-])cc1,inhibition,H37Rv,,BACTEC,12.5 µg/mL,,0%
CC1S/C(=N\N=C2/C(=O)Nc3ccccc32)N(c2ccccc2)C1=O,MIC,H37Rv,,,,,>12.5 µg/mL
O=C(Cc1csc2nc(-c3ccccc3)cn12)N/N=C/c1c(Cl)cccc1Cl,MIC,H37Rv,,,,,>12.5 µg/mL
Cn1cccc2nc(C/C(N)=N/O)nc1-2,MIC,193,,,,,500 µg/mL
CCCCN=C(N=Nc1c(O)[nH]c2ccc(Br)cc12)SCC(=O)c1ccc(Br)cc1,MIC,H37Rv,,,,,12.5 µg/mL
CCOC(=O)C/C(O)=C(/N=Nc1nc[nH]c1C(N)=O)C(=O)OCC,inhibition,H37Rv,,resazurin,6.25 µg/mL,,-3%
COc1ccccc1/C=N/NC(=O)Cc1csc2nc(-c3ccccc3)cn12,MIC,H37Rv,,,,,>12.5 µg/mL
CO[C@H]1/C=C/O[C@@]2(C)Oc3c(C)c(O)c4c(O)c(c5c(c4c3C2=O)NC2(CCN(C)CC2)N=5)=NC(=O)/C(C)=C\C=C\[C@H](C)[C@H](O)[C@@H](C)[C@@H](O)[C@@H](C)[C@H](OC(C)=O)[C@@H]1C,MIC,H37Rv,,,,VERO,0.1 µg/mL
NNC(=O)c1ccncc1,MIC,WC 64/02,,,,,0.062 µg/mL
O=C(CSc1nc2ccccc2[nH]1)N=Nc1c(O)[nH]c2ccccc12,inhibition,H37Rv,,,12 µg/mL,,1%
COC1C(O)=C2C(=O)OC(C)(O)/C=C/C=C/C=C/C=C\C(c3ccccc3)NC(=O)/C=C/C=C/C=C/C=C/C2(C)C1O,MIC,H37Rv,,BACTEC,,,≥12.5 µg/mL
CC(=O)Oc1ccc([C@@H]2CC(=O)c3c(cc(OC(C)=O)c(-c4c(OC(C)=O)cc5c(c4OC(C)=O)C(=O)C[C@@H](c4ccc(OC(C)=O)cc4)O5)c3OC(C)=O)O2)cc1,EC50,,,,,,>12.5 µg/mL
Cc1nc(N)sc1N=Nc1cccc(Cl)c1Cl,inhibition,H37Rv,,BACTEC,12.5 µg/mL,,1%
NC(=O)c1cnccn1,MIC,Isolate F57636 (INH RIF-resistant),,,,,>900 µg/mL
C=CCN=C(N=Nc1c(O)[nH]c2ccccc12)SCC(=O)c1ccc([N+](=O)[O-])cc1,EC50,H37Rv,,,,,>12 µg/mL
C[C@H](NC(=O)OCc1ccccc1)C(=O)N1CCC[C@H]1C(=O)NCC(=O)Oc1ccc([N+](=O)[O-])cc1,inhibition,H37Rv,,BACTEC,12.5 µg/mL,,-8%
COC(=O)CCc1cnc(C2C3CC4CC(C3)CC2C4)[nH]1,inhibition,H37Rv,,,6.25 µg/mL,,21%
O=c1cc(-c2ccc(Oc3c(-c4cccc([N+](=O)[O-])c4)oc4ccccc4c3=O)cc2)oc2ccccc12,MIC,,,,,,>12.5 µg/mL
Nc1nc(N)c2c(n1)CN(Cc1ccc(Cl)cc1)C2,MIC bound,H37Rv,,BACTEC,,,>12.5 µg/mL
Cc1cc(N=C(N)N)ccc1-c1ccc(-c2ccc(N=C(N)N)cc2C)o1,inhibition,,,,12.5 µg/mL,,2%
CNC(=S)Nc1ccc(C(C)=O)cc1,MIC,H37Rv,,,,,5 µg/mL
O=C(NN=C1CCCCC1)c1ccncc1,MIC,Erdman,,,,,0.03 µg/mL
COC(=O)c1cc2c3c(ccc2[nH]1)N(C(=O)c1cc2c4c(ccc2[nH]1)N(C(=O)c1cc2c5c(ccc2[nH]1)N(C(N)=O)CC5)CC4)CC3,inhibition,H37Rv,,BACTEC,12.5 µg/mL,,-21%
O=C(O)c1cn(-c2ccc(F)cc2F)c2cc(N3CCN(Cc4ccc5c(c4)OCO5)CC3)c(F)cc2c1=O,MIC,ATCC35801,,,,,5.82 µM
CC(C)N=c1cc2n(-c3ccc(Cl)cc3)c3ccccc3nc-2cc1Nc1ccc(Cl)cc1,MIC,MTB9 (RIF-resistant),,,,,0.5 µg/mL
CCOC(=O)c1cnc(C(C)(C)C)[nH]1,inhibition,H37Rv,,,6.25 µg/mL,,0%
Nc1nc(-c2cc3cc(Cl)ccc3o2)cs1,MIC bound,H37Rv,,BACTEC,,,>12.5 µg/mL
O=c1cc(-c2ccc(O)c(-c3c(O)cc(O)c4c(=O)cc(-c5ccc(O)cc5)oc34)c2)oc2cc(O)cc(O)c12,EC50,,,,,,>12.5 µg/mL
CNC(=S)Nc1ccc(N=Nc2ccccc2)cc1,MIC,H37Rv,,,,,10 µg/mL
CC(C)CCOCC(O)CNCCN,inhibition,H37Rv,,resazurin,6.25 µg/mL,,8%
Cc1cc(O)c2c(c1)C(=O)C=CC2=O,MIC,WC 64/02,,,,,0.5 µg/mL
COc1cc(N=C(N)N)ccc1-c1ccc(-c2ccc(N=C(N)N)cc2OC)o1,inhibition,,,,12.5 µg/mL,,0%
Cc1ccc(-n2cc(CS(=O)(=O)C3c4ccccc4-c4ccccc43)nn2)cc1,MIC99,H37Rv,,broth dilution,,,125 µM
Cc1ccc(/C=C(\C(N)=S)c2nc3cccnc3n2C)c(C)c1,MIC,193,,,,,15.6 µg/mL
CO[C@H]1/C=C/O[C@@]2(C)Oc3c(C)c(O)c4c(O)c(c5c(c4c3C2=O)NC2(C[C@@H](c3ccccc3)N[C@@H](c3ccccc3)C2)N=5)=NC(=O)/C(C)=C\C=C\[C@H](C)[C@H](O)[C@@H](C)[C@H](O)[C@H](C)[C@H](OC(C)=O)[C@@H]1C,MIC,ATCC 35837 (ethambutol-resistant),,,,,0.02 µg/mL
NC(N)=Nc1ccc(-c2ccc(-c3ccc(N=C(N)N)cc3Cl)o2)c(Cl)c1,EC50,,,,,,>12.5 µg/mL
Clc1ccc(Nc2cc3nc4ccccc4n(-c4ccc(Cl)c(Cl)c4)c-3cc2=NC2CCNCC2)cc1Cl,MIC,2219 (INH RIF-RES),,,,,0.12 µg/mL
COc1c2c(nc3ccccc13)-c1cc3c(c(=O)n1C2)COC(=O)C3(O)CC(=O)N1CCOCC1,inhibition,H37Rv,,resazurin,6.25 µg/mL,,36%
C=CCNC(=S)N=Nc1c(O)[nH]c2ccccc12,MIC,H37Rv,,,,,>12.5 µg/mL
COC(=O)C1C(O)C(C)C(O)OC1C(C)C(O)C(C)C=CC=C(C)C(=O)Nc1c(C)c(OC(C)=O)c2c(c1O)C(=O)C(C)=C1OCOC(C(C)=CC(C)=O)=C12,inhibition,H37Rv,,BACTEC,128 µg/mL,,95%
CCN=c1cc2n(-c3ccc(Cl)cc3)c3ccccc3nc-2cc1Nc1ccc(Cl)cc1,MIC,MTB9 (RIF-resistant),,,,,0.06 µg/mL
O=C(Cc1csc2nc(-c3ccccc3)cn12)N/N=C/c1ccc(C(=O)O)cc1,inhibition,H37Rv,,,12.5 µg/mL,,0%
Cc1nnc(NS(=O)(=O)c2ccc(N=Nc3cc(N=Nc4ccccc4)c(N)nc3N)cc2)s1,inhibition,H37Rv,,BACTEC,12.5 µg/mL,,21%
O=C(O)CCCN1CSC(=S)N(C2CC2)C1,MIC,H37Rv,,,,,25 µg/mL
Cc1ccc(NC(=S)Nc2c(C)n(C)n(-c3ccccc3)c2=O)cc1,MIC bound,H37Rv,,resazurin,,,>6.25 µg/mL
CN=C(N=Nc1c(O)[nH]c2ccccc12)SCC(=O)c1ccc(Br)cc1,MIC,H37Rv,,,,,6.25 µg/mL
C=CCN1[C@@H](c2ccccc2)CC2(C[C@H]1c1ccccc1)N=c1c(c3c4c5c(C)c(O)c3c(O)c1=NC(=O)/C(C)=C\C=C\[C@H](C)[C@H](O)[C@@H](C)[C@H](O)[C@H](C)[C@H](OC(C)=O)[C@H](C)[C@@H](OC)/C=C/O[C@@](C)(O5)C4=O)N2,MIC,ATCC 35820 (streptomycin-resistant),,,,,0.02 µg/mL
CCCCCCNC(=O)CCc1cnc(C2C3CC4CC(C3)CC2C4)[nH]1,MIC,H37Rv,,,,,>6.25 µg/mL
CSC1=NC(C(N)=O)C(N)N1C,inhibition,H37Rv,,BACTEC,12.5 µg/mL,,0%
Cc1ccc(/C=C(\C(N)=S)c2nc3ncccc3n2C)c(C)c1,MIC,193,,,,,31.2 µg/mL
O=S(=O)(Cc1cn(-c2ccc(Cl)c(Cl)c2)nn1)C1c2ccccc2-c2ccccc21,MIC99,H37Rv,,broth dilution,,,>219 µM
Cc1cc(NC(=O)c2ccc(N)cc2)ccc1N=Nc1ccc2cc(S(=O)(=O)O)cc(S(=O)(=O)O)c2c1,MIC,H37Rv,,BACTEC,,,≥12.5 µg/mL
CCN1C(=O)C(C)S/C1=N/N=C1\C(=O)Nc2ccc(Br)cc21,MIC,H37Rv,,,,,>12.5 µg/mL
O=C(N/N=C/c1ccc2c(c1)OCO2)c1ccccc1,MIC bound,H37Rv,,BACTEC,,,>12.5 µg/mL
O=C(O)CCCCCN1CSC(=S)N(C2CC2)C1,MIC,H37Rv,,,,,25 µg/mL
COc1ccc(C(C)c2cc3c(cc2OC)OCO3)cc1,MIC bound,H37Rv,,BACTEC,,,>12.8 µg/mL
O=[N+]([O-])c1ccc(-n2cc(CS(=O)(=O)C3c4ccccc4-c4ccccc43)nn2)cc1,MIC99,Specimen 192,,broth dilution,,,>231 µM

The first 5 rows once more:

compound,read-out,strain or isolate,changes,read by,tested at,cells,result
CC(C(=O)NN)c1nc2ncccc2[nH]1,MIC,H37Rv,,,,,500 µg/mL
CCCCCCCCCCCCN1CN(CCC(=O)O)CSC1=S,MIC,H37Rv,,,,,12.5 µg/mL
CCCCN1C(=O)C(C)S/C1=N/N=C1\C(=O)Nc2ccc(Br)cc21,MIC,H37Rv,,,,,>12.5 µg/mL
NNC(=O)c1ccncc1,MIC,HUG.MI.1020,katG mutant isoniazid resistant,resazurin / absorbance,,,1.3 µg/mL
COc1cccc(/C=N/NC(=O)Cc2csc3nc(-c4ccccc4)cn23)c1,MIC,H37Rv,,,,,>12.5 µg/mL

Percent inhibition refers to the dose given; in toxicity tests it is the harm to the cells. MIC50, MIC90 and the like: level of inhibition, or share of isolates inhibited. MIC bound comes from a single tested concentration. Neighbouring rows are from separate reports. Blank or dashed fields: not listed here.